{"source": "PubChem BioAssay AID504594", "about": "(Broad Institute, 2011)", "note": "The list shows a part of the results, in another mix than the full data. The source made the active and inactive calls.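 Rule for the calls: active = growth inhibition of at least 75% in every replicate, which also brings the mean inhibition to 75% or more; inconclusive = mean inhibition 75% or more but some replicate under 75%; inactive = the rest.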"}
{"assay": "growth inhibition of PfHsp90-dependent yeast, primary screen, antimalarial PfHsp90 inhibitor project, S. cerevisiae, BacTiter-Glo luminescence (AID 504594);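 note: 0% = DMSO neutral control wells and 100% = 20 µM radicicol control wells; higher value means stronger growth inhibition because the sign is flipped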", "conditions": "S. cerevisiae expressing PfHsp90, BacTiter-Glo growth, 48 h; at 9.4 µM; stronger effect = higher value"}
{"compound": "CN(C(=O)Cc1ccc(Cl)c(Cl)c1)[C@@H]1CCCC[C@H]1N1CCCC1", "growth inhibition": "inactive: 6.66%"}
